Deep mutational scan of the Zika virus protease

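Pools of virus carrying all single amino acid changes were selected for growth in Huh-7.5 cells. Sequencing of three replicate libraries (two for positions 207-308) was averaged into one effect per change. The aim was to find sites where inhibitor-binding pockets cannot change.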

Chain scanned (Zika virus MR766; NS2B from position 2 to 131, then the start of NS3):
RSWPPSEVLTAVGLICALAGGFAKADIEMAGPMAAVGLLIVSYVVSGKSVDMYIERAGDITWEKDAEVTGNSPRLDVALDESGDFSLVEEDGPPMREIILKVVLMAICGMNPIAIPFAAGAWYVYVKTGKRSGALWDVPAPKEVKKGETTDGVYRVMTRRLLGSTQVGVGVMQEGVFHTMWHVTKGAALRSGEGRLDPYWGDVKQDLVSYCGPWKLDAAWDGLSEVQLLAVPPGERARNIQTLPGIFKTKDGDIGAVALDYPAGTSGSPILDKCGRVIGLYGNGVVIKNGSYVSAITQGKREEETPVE

The number is log2 of the effect relative to wild type; negative values mean reduced growth, higher values better tolerance.
A change reads original residue, position, new residue.
This list holds changes to glutamate only.
The region was split into three libraries (1-103, 104-206, 207-308).
The authors count -1 or higher as tolerated. Position 1 is the last residue of NS2A.
Values above 0 are not proof of better growth: six high scorers were tested one by one, five grew less well than wild type and one about as well.

D221E gave -6.09. G222E read -4.58. With L223E the assay gave -0.75. S224E gave -3.08. V226E read -5.41. With Q227E the assay gave -6.57.

L228E read -3.63. L229E read -1.41. A230E gave -4.86. With V231E the assay gave -5.03. For P232E the result was -3.32. With P233E the assay gave -5.36.

G234E read -5.42. For R236E the result was 0.34. A237E gave -3.57. With R238E the assay gave 1.22. For N239E the result was -5.60. With I240E the assay gave -5.57.

With Q241E the assay gave -1.82. T242E gave -4.98. L243E gave -5.43. P244E read -4.55. With G245E the assay gave -5.60. I246E read -4.33.

F247E read -5.86. With K248E the assay gave -4.87. T249E read -4.69. K250E read -5.83. With D251E the assay gave -0.40. G252E read -3.80.

With D253E the assay gave 0.08. I254E gave -5.76. With G255E the assay gave -6.44. A256E gave -6.05. With V257E the assay gave -4.76. For A258E the result was -5.27.

L259E read -5.16. D260E read -5.50. Y261E gave 0.96. P262E read -4.10. A263E gave -5.37. For G264E the result was -5.44.

T265E read -3.20.

Values reported by Ni et al. 2025 (doi:10.1038/s41467-025-63602-z).